Results of unrelated studies side by side (data: NIAID ChemDB).

All rows: toxicity to cultured cells; cell line: MT-2; endpoint: CC50

Blank or dashed fields: not listed here.

| compound | method | result |
|---|---|---|
| Cc1cn([C@@H]2O[C@H](CO)[C@@H](CN=[N+]=[N-])[C@H]2O)c(=O)[nH]c1=O | - | >100 µM |
| Nc1nc(=O)n([C@H]2C=C[C@@H](CO)O2)cc1F | - | ~100 µM |
| CC(=O)Oc1c(OCC(=O)c2ccccc2)ccc2c1C(=O)c1ccccc1C2=O | MTT | ~40 µM |
| Cc1ccc(CN(Cc2cc3cc(C)ccc3[nH]c2=O)C(=O)c2ccco2)cc1 | XTT | >65 µM |
| C[C@H]1/C=C/[C@@]2(C)CC[C@@H](C(C)(C)O)[C@@H]2[C@@H](O)C[C@](C)(O)/C=C/C1 | MTT | 1345–1456 µM |
| O=C(N/C(C(=O)N1CCCCC1)=C(/Cl)c1ccccc1)c1ccccc1 | - | >81 µM |
| O=C1NC(=O)C(CS)(CSCc2ccccc2)N1 | - | >2 µM |
| [O-][n+]1onc2ncnc(N3CC[N+]4(CC3)CC[N+]3(CCN(c5ncnc6no[n+]([O-])c56)CC3)CC4)c21 | XTT | 79.1 µM |
| C=Cc1cn([C@H]2C=C[C@@H](OCP(=O)(O)O)O2)c(=O)[nH]c1=O | - | 76 µg/mL |
| O=C(O)c1cc(-c2ccc(/C=C3\SC(=S)N(Cc4cccnc4)C3=O)o2)ccc1Cl | XTT | >350.4 µM |
| CCCNc1nc(N)nc2c1ncn2[C@H]1C=C[C@@H](CO)C1 | - | >100 µM |
| C=C1CC[C@@H](OC(C)=O)[C@@]2(C)CCC3[C@](C)(CC[C@]3(O)C(C)C)C[C@]12O | MTT | 935 µM |
| Cc1ccc(-c2ccc(C(=O)NC(CN(C)C)c3nc(C)c(CO)s3)[nH]2)cc1F | XTT / absorbance | >40 µM |
| CC(=O)OCCc1c(C2CC2)nn(CC(=O)N[C@@H](Cc2ccccc2)C(=O)N(C)c2ccc3c(c2)OCO3)c1C | ATP | >20 µM |
| Nc1ccn([C@H]2CC[C@@H](CO)O2)c(=O)n1 | - | >10 µg/mL |
| Cc1cn([C@H]2C[C@H](CN=[N+]=[N-])[C@@H](CO)O2)c(=O)[nH]c1=O | - | >100 µM |
| Cn1nc(NS(C)(=O)=O)c2c(Cl)ccc(-n3c([C@H](Cc4cc(F)cc(F)c4)NC(=O)Cn4nc(C(F)F)c5c4C(F)(F)[C@@H]4C[C@H]54)nc4cc(-c5cnn(C(F)F)c5)ccc4c3=O)c21 | XTT | >0.5 µM |
| CCOC(=O)C(C)N1C(=O)S/C(=C\c2ccc(-c3cc(C(=O)O)ccc3C)o2)C1=O | XTT | >372.8 µM |
| CNC(=O)NC[C@H]1O[C@@H](n2cnc3c(NC(=O)Nc4ccccc4)ncnc32)[C@@H]2OC(=O)C[C@@H]21 | neutral red | 58.5 µM |
| CC1=C(CCC(=O)O)c2cc3nc(cc4[nH]c(cc5[nH]c(cc1n2)c(CCC(=O)O)c5CC(=O)O)c(CCC(=O)O)c4C)C(CCC(=O)O)=C3C | - | 78 µg/mL |
| CCOC(=O)Nc1[nH]c2cccc(Cl)c2c1C(=O)C(F)(F)F | ATP | >200 µM |
| COc1cc(/C=C2\C(=O)N(c3ccccc3)N=C2c2ccccc2)cc(Br)c1OCC(N)=O | XTT | 65.66 µM |
| NC(CSCc1ccccc1)(CSCc1ccccc1)C(=O)O | - | >100 µM |
| O=C(O[C@H]1Cc2c(O)cc(O)cc2O[C@@H]1c1cc(O)c(O)c(O)c1)c1cc(O)c(O)c(O)c1 | - | 155.8 µM |
| CCCCC(O)(c1c(NC(=O)OCC)[nH]c2cccc(Cl)c12)C(F)(F)F | ATP | 58 µM |
| O=C1NC(=O)C(CSCc2cccc3ccccc23)(CSCc2cccc3ccccc23)N1 | - | >100 µM |
| CCOC(=O)c1cc(O)c(O)c(O)c1 | MTS | >200 µM |
| Cc1nc2sc3c(c2c(-c2cccc(CO)c2)c1C(OC(C)(C)C)C(=O)O)CCCC3 | - | >20 µM |
| CCOC(=O)Nc1[nH]c2cc(Cl)cc(Cl)c2c1C(=O)C(F)(F)F | ATP | 67.5 µM |
| Cn1nc(NS(C)(=O)=O)c2c(Cl)ccc(-n3c(C(Cc4cc(F)cc(F)c4)NC(=O)Cn4nc(C(F)F)c5c4C(F)(F)[C@@H]4C[C@H]54)nc4cc(-c5ccccc5F)ccc4c3=O)c21 | XTT | >1 µM |
| Nc1nc2c(ncn2[C@H]2C=C[C@@H](CO)C2)c(=O)[nH]1 | - | 41.8 µg/mL |
| C=CCC(O)(c1c(NC(=O)OCC)[nH]c2cccc(Br)c12)C(F)(F)F | ATP | 54.3 µM |
| O=c1[nH]c(=O)n([C@H]2C=C[C@@H](OCP(=O)(O)O)O2)cc1I | - | >100 µg/mL |
| COC(=O)c1cc(C(=O)OC)cc(N(C(=O)Nc2ccc(Cl)c(Cl)c2)C(C)c2nc3ccccc3c(=O)n2Cc2ccccc2)c1 | - | 0.67 µg/mL |
| N#Cc1cc(Cl)cc(Oc2ccc(Cl)cc2OCCn2cc(F)c(=O)[nH]c2=O)c1 | MTT | 13 µM |
| CC(=O)Oc1c(OCC(=O)c2ccc(Br)cc2)ccc2c1C(=O)c1ccccc1C2=O | MTT | >100 µM |
| N#Cc1cc(Cl)cc(Oc2cc(Cl)ccc2OCCn2ccc(=O)[nH]c2=O)c1 | MTT | 32 µM |
| CCc1nn(CC(=O)N[C@@H](Cc2ccccc2)C(=O)N(C)c2ccc3c(c2)OCO3)c(C)c1CCO | ATP | >20 µM |
| O=C1NC(=O)C(CSc2ccncc2)(CSc2ccncc2)N1 | - | >100 µM |
| C=C1CN(S(=O)(=O)c2ccc(C)cc2)CCCN(Cc2ccccc2)CCCN(S(=O)(=O)c2ccc(C)cc2)C1 | - | >30 µM |
| Nc1ccc(CSCC2(CSCc3ccc(N)cc3)NC(=O)NC2=O)cc1 | - | >16 µM |
| Cn1nc(NS(C)(=O)=O)c2c(Cl)ccc(-n3c([C@H](Cc4cc(F)cc(F)c4)NC(=O)Cn4ccc(C5CC5)n4)nc4cc(-c5ccccc5F)ccc4c3=O)c21 | XTT | >1 µM |
| Cc1nc(C(CN(C)C)NC(=O)c2ccc(-c3ccc(Cl)cc3)[nH]2)sc1CO | XTT / absorbance | >40 µM |
| Cc1cn([C@@H]2O[C@H](CO)[C@@H](CN=[N+]=[N-])[C@@H]2O)c(=O)[nH]c1=O | - | >100 µM |
| O=C(Oc1cc(O)cc2c1C[C@@H](OC(=O)c1cc(O)c(O)c(O)c1)[C@@H](c1cc(O)c(O)c(O)c1)O2)c1cc(O)c(O)c(O)c1 | - | >200 µM |
| C=Cc1c(C)c2cc3[nH]c(cc4nc(cc5nc(cc1[nH]2)C(C)=C5CCC(=O)O)C(CCC(=O)O)=C4C)c(C)c3C(C)O | - | 31.9 µg/mL |
| Cc1c(C(=O)O)cccc1-c1ccc(/C=C2\SC(=S)N(c3cccc(C(F)(F)F)c3)C2=O)o1 | XTT | 24.5 µM |
| CCCc1cc(=O)oc2c3c(c4c(c12)OC(C)(C)CC4)O[C@@H](C)[C@H](C)[C@@H]3O | - | 10–20 µM |
| C=CC1=C(C)C2=NC1=CC1=NC(=C(CC)/C1=C\[O-])C=c1[n-]c3c(c1C)C(=O)[C@H](C(=O)OC)C=3C1=NC(=C2)[C@@H](C)[C@@H]1CCC(=O)OC/C=C(\C)CCCC(C)CCCC(C)CCCC(C)C.[Mg+2] | - | >80 µg/mL |
| CCC(C(=O)N[C@@H](Cc1ccccc1)C(=O)N(C)c1ccc2c(c1)OCO2)n1nc(C)c(CCO)c1C1CC1 | ATP | >20 µM |
| Cc1nc2cc(-c3c(C(OC(C)(C)C)C(=O)O)c(C)nc4sc5c(c34)CCCC5)ccc2s1 | - | >20 µM |
| COc1ccc(-c2cc(C(=O)Nc3ccc(S(=O)(=O)Nc4cc(C)nc(C)n4)cc3)c3ccccc3n2)cc1 | XTT | 41.81 µM |
| Cc1[nH]nc(CC(=O)N[C@@H](Cc2ccccc2)C(=O)N(C)c2ccc3c(c2)OCO3)c1C | ATP | >20 µM |
| Nc1nc2c(ncn2[C@H]2C=C[C@@H](CO)C2)c(=O)[nH]1 | - | 41.8 µg/mL |
| C=Cc1c(C)c2cc3nc(cc4[nH]c(cc5nc(cc1[nH]2)C(C)=C5CO)c(C)c4CCC(=O)O)C(CCC(=O)O)=C3C | - | 52.8 µg/mL |
| Cc1nc2sc3c(c2c(-c2ccc(C(F)(F)F)cc2)c1[C@H](OC(C)(C)C)C(=O)O)CCCC3 | - | >20 µM |
| COc1ccc(N2C(=O)/C(=C/c3ccc(-c4ccc(Cl)c(C(=O)O)c4)o3)SC2=S)cc1 | XTT | >339.2 µM |
| CC(=O)N[C@@H](Cc1ccccc1)C(=O)N[C@H](C(=O)N[C@@H](CC(C)C)[C@@H](O)CC(=O)N[C@@H](CC(C)C)C(=O)N[C@@H](Cc1ccccc1)C(N)=O)C(C)C | - | >138 µM |
| COc1cc(C)cc2c(-c3c(O)cc(O)c4c3C[C@H](C)N[C@H]4C)cc(-c3cc(-c4c(O)cc(O)c5c4C[C@H](C)N[C@H]5C)c4cc(C)cc(OC)c4c3O)c(O)c12 | - | >250 µM |
| CCc1cn([C@H]2C=C[C@@H](OCP(=O)(O)O)O2)c(=O)[nH]c1=O | - | >100 µg/mL |
| CC1(C)C=C2C3CCC4[C@@]5(C)CCC(=O)C(C)(C)C5[C@H](O)C[C@@]4(C)[C@]3(C)CC[C@@]2(C)CC1 | - | 10.52–53.85 µM |
| O=C(CCCCC(=O)Nc1sc2c(c1C(=O)O)CCCC2)Nc1sc2c(c1C(=O)O)CCCC2 | XTT | >100 µM |
| Cc1cn([C@H]2CC[C@@H](COC(=O)c3ccccc3)O2)c(=O)[nH]c1=O | - | >625 µM |
| O=c1c(O)cc([C@H]2Oc3cc(O)cc(O)c3C[C@H]2O)cc2c([C@H]3Oc4cc(O)cc(O)c4C[C@H]3O)cc(O)c(O)c12 | - | 177.8 µM |
| Cc1nc(C(CN(C)C)NC(=O)c2ccc(-c3ccc(Cl)c(F)c3)[nH]2)sc1CO | XTT / absorbance | >40 µM |
| Nc1nc(N)c2ncn([C@H]3CC[C@@H](CO)C3)c2n1 | - | >100 µg/mL |
| C=Cc1c(C)c2cc3c(C=C)c(C)c(cc4nc(cc5nc(cc1[nH]2)C(C)=C5CCC(=O)O)C(CCC(=O)O)=C4C)n3C | - | 40.3 µg/mL |
| Cc1cn([C@H]2C=C[C@@](C#N)(CO)O2)c(=O)[nH]c1=O | - | >100 µM |
| O=C1NC(=O)C(CSC(=O)c2ccccc2)(CSC(=O)c2ccccc2)N1 | - | >5 µM |
| C=Cc1c(C)c2cc3[nH]c(cc4nc(cc5nc(cc1[nH]2)C(C)=C5CCC(=O)O)C(CCC(=O)O)=C4C)c(C)c3C=C | - | 8.9 µg/mL |
| N#Cc1ccc(Oc2cc(Cl)ccc2Cl)c(OCCn2ccc(=O)[nH]c2=O)c1 | MTT | 59 µM |
| [N-]=[N+]=NC[C@H]1O[C@@H](n2cnc3c(NC(=O)Nc4ccccc4)ncnc32)[C@@H]2OC(=O)C[C@@H]21 | neutral red | 21.9 µM |
| Cc1nc2cc(N(C)C(=O)[C@H](Cc3ccccc3)NC(=O)Cn3nc(C4CC4)c(CCO)c3C)ccc2s1 | ATP | >20 µM |
| Cc1nc2sc3c(c2c(-c2cccc(-n4cccn4)c2)c1C(OC(C)(C)C)C(=O)O)CCCC3 | - | >20 µM |
| Nc1nc2c(ncn2[C@H]2C=C[C@@H](CO)C2)c(=O)[nH]1 | - | 100 µg/mL |
| Cc1nn(C(C)C(=O)N[C@@H](Cc2ccccc2)C(=O)N(C)c2ccc3c(c2)OCO3)c(C2CC2)c1CCO | ATP | >20 µM |

A second listing of 8 rows from above:

compound | method | result
CCCCC(O)(c1c(NC(=O)OCC)[nH]c2cccc(Cl)c12)C(F)(F)F | ATP | 58 µM
Cc1nc(C(CN(C)C)NC(=O)c2ccc(-c3ccc(Cl)cc3)[nH]2)sc1CO | XTT / absorbance | >40 µM
Cc1nc2cc(N(C)C(=O)[C@H](Cc3ccccc3)NC(=O)Cn3nc(C4CC4)c(CCO)c3C)ccc2s1 | ATP | >20 µM
CC(=O)N[C@@H](Cc1ccccc1)C(=O)N[C@H](C(=O)N[C@@H](CC(C)C)[C@@H](O)CC(=O)N[C@@H](CC(C)C)C(=O)N[C@@H](Cc1ccccc1)C(N)=O)C(C)C | - | >138 µM
Cc1c(C(=O)O)cccc1-c1ccc(/C=C2\SC(=S)N(c3cccc(C(F)(F)F)c3)C2=O)o1 | XTT | 24.5 µM
Cc1nc2sc3c(c2c(-c2cccc(-n4cccn4)c2)c1C(OC(C)(C)C)C(=O)O)CCCC3 | - | >20 µM
CC1=C(CCC(=O)O)c2cc3nc(cc4[nH]c(cc5[nH]c(cc1n2)c(CCC(=O)O)c5CC(=O)O)c(CCC(=O)O)c4C)C(CCC(=O)O)=C3C | - | 78 µg/mL
Cc1cn([C@@H]2O[C@H](CO)[C@@H](CN=[N+]=[N-])[C@@H]2O)c(=O)[nH]c1=O | - | >100 µM

CCn is the concentration with n% toxicity to the cells. Conditions beyond the fields shown may differ between rows. Two numbers with a dash give a range or band.